Pooled drug test results. Numbers come from NIAID ChemDB, via PubChem.

Common to all: growth or infection tests; organism: Enterococcus faecalis

MIC50, MIC90 and the like: level of inhibition, or share of isolates inhibited. a–b is a range or a potency band. Lines come from different laboratories, so protocols vary. Blank or dashed fields: not listed here.

SMILES | endpoint | strain | value
CC(=O)NC[C@H]1CN(c2ccc(-c3noc(C)n3)c(F)c2)C(=O)O1 | MIC | UC9217 | >16 µg/mL
CN(C)c1cc(NC(=O)CNC(C)(C)C)c(O)c2c1C[C@H]1C[C@H]3[C@H](N(C)C)C(=O)C(C(N)=O)=C(O)[C@@]3(O)C(=O)C1=C2O | MIC90 | 20 strains (vancomycin-susceptible) | 0.25 µg/mL
CC(=O)NC[C@H]1CN(c2ccc(-c3cncs3)c(F)c2)C(=O)O1 | MIC | UC9217 | 0.5 µg/mL
O=C(NNC(=O)Nc1ccc(Cl)c(Cl)c1)Nc1ccc(Cl)c(Cl)c1 | MIC | STD44 | 9.8 µM
O=C(O)NC[C@H]1CC(c2ccc(N3CCOCC3)c(F)c2)=NO1 | MIC | UC9217 | 8 µg/mL
O=C(Nc1cccc(C2=NCCN2)c1)Nc1cccc(C(F)(F)F)c1 | MIC | STD44 | >300 µM
CC[C@H]1OC(=O)[C@H](C)C(=O)[C@H](C)[C@@H](O[C@@H]2O[C@H](C)C[C@H](N(C)C)[C@H]2O)[C@](C)(OC)C[C@@H](C)C(=O)[C@H](C)[C@H]2N(CCCCn3cnc(-c4cccnc4)c3)C(=O)O[C@]12C | MIC90 | - | 2–4 µg/mL
O=C(Nc1cccc(C2=NCCN2)c1)Nc1cccc(C2=NCCN2)c1 | MIC | STD44 | >300 µM
CC(=O)NC[C@H]1CN(c2ccc(-c3ccn(C)n3)c(F)c2)C(=O)O1 | MIC | UC9217 | 8 µg/mL
O=C(O)NC[C@H]1CC(c2ccc(N3CCN(C(=O)CO)CC3)c(F)c2)=NO1 | MIC | UC9217 | 4 µg/mL
O=C(Nc1cc(C(F)(F)F)cc(C(F)(F)F)c1)NN1CCOCC1 | MIC | STD44 | 164 µM
CC(=O)NC[C@H]1CN(c2ccc(-c3ccn(C(C)=O)n3)c(F)c2)C(=O)O1 | MIC | UC9217 | 8 µg/mL
O=C(O)NC[C@H]1CC(c2cc(F)c(N3CCN(C(=O)CO)CC3)c(F)c2)=NO1 | MIC | UC9217 | 2 µg/mL
CC(=O)NC[C@H]1CN(c2ccc(-c3cnc(C(C)=O)s3)c(F)c2)C(=O)O1 | MIC | UC9217 | 0.5 µg/mL
O=C(O)NC[C@H]1CC(c2ccc(-n3cccc3)c(F)c2)=NO1 | MIC | UC9217 | 4 µg/mL